Results of unrelated studies side by side (data: NIAID ChemDB).

All rows: whole-cell or culture tests; organism: Candida albicans; read-out: MIC

Conditions beyond the fields shown may differ between rows.

smiles | strain | value
CCCCCOc1ccc(-c2ccc(-c3ccc(C(=O)N[C@H]4CCCNC(=O)[C@@H]5C[C@H](NCc6ccccc6)CN5C(=O)[C@H]([C@@H](C)O)NC(=O)[C@H](CCc5ccc(O)cc5)NC(=O)[C@@H]5C[C@@H](O)CN5C(=O)[C@H]([C@@H](C)O)NC4=O)cc3)cc2)cc1 | ATCC 10231 | 0.78 µg/mL
CCCCC[C@@H]1CC[C@H](C)CCCCC(=O)N(C)[C@@H](Cc2ccc(OCCO)cc2)C(=O)O1 | TIMM1768 | 32 µg/mL
CCOc1cc2c(cc1F)n([O-])c(C)c(Cl)[n+]2=O | Clinical isolate 12 | 62.5 µg/mL
O=C1/C(=C/c2ccc(O)c(O)c2)CCc2ccccc21 |  | 50 µg/mL
CCOc1cc2c(cc1F)n([O-])c(C)c(S(=O)(=O)c1ccccc1)[n+]2=O | Clinical isolate 2 | 15.6 µg/mL
CCCCCOc1ccc(-c2ccc(-c3ccc(C(=O)N[C@H]4CCCNC(=O)[C@@H]5C[C@H](NC(=O)C[N+](C)(C)C)CN5C(=O)[C@H]([C@@H](C)O)NC(=O)[C@H](CCc5ccc(O)cc5)NC(=O)[C@@H]5C[C@@H](O)CN5C(=O)[C@H]([C@@H](C)O)NC4=O)cc3)cc2)cc1 | ATCC 10231 | 1.56 µg/mL
Cc1c(Cl)[n+](=O)c2cc(Cl)ccc2n1[O-] | Clinical isolate 5 | 7.8 µg/mL
O=C(c1ccccc1Br)n1c(-c2ccc(O)cc2)nc2ccccc21 |  | 4 µg/mL
COc1ccc(/C=C2\CS(=O)c3ccccc3C2=O)cc1 |  | 25 µg/mL
CC1C(c2ccc(Cl)cc2)N(C)C(c2ccc(Cl)cc2)CC12NNC(=S)N2 |  | 50 µg/mL
O=C(c1ccc([N+](=O)[O-])cc1)n1c(-c2ccc([N+](=O)[O-])cc2)nc2ccccc21 |  | 9 µg/mL
Cc1cc(O)c(C(C)C)cc1O |  | 125 µg/mL
O=C1/C(=C/c2ccc3ccccc3c2)CSc2ccccc21 |  | 25 µg/mL
Cc1cc(=O)oc2cc(OCC(O)Cn3cnc4ccccc43)cc(OCC(O)Cn3cnc4ccccc43)c12 |  | >512 µg/mL
O=C(c1ccc([N+](=O)[O-])cc1)n1c(-c2cccc([N+](=O)[O-])c2)nc2ccccc21 |  | 18 µg/mL
Cc1ccc(/C(=N\OCc2ccc(Cl)cc2)c2cc3ccccc3o2)cc1 |  | 16 µg/mL
Cc1ccc(C2CC3(CC(c4ccc(C)cc4)N2C)NNC(=S)N3)cc1 |  | 200 µg/mL
CCCCCNC(=O)c1ccc[nH]c1=S |  | 40 µg/mL
O=C1/C(=C/c2ccc3ccccc3c2)CSc2ccc(Cl)cc21 |  | 50 µg/mL
S=c1c2cccnc2sn1Cc1ccccc1 |  | 20 µg/mL
O=C(c1ccc([N+](=O)[O-])cc1)n1c(-c2ccccc2[N+](=O)[O-])nc2ccccc21 |  | 36 µg/mL
c1ccc(CN=c2ssc3ncccc23)cc1 |  | 20 µg/mL
COc1ccccc1/C=C1\CSc2ccccc2C1=O |  | 25 µg/mL
CO/N=C(\c1ccccc1)c1cc2ccccc2o1 |  | 2 µg/mL
CNc1ccc(C(=O)CC(O)CCC(C)C2OC(=O)CC(O)CC(=O)CC(O)CC(O)CC(O)CC(O)CC3(O)CC(O)C(C(=O)N4CCN(C)CC4)C(CC(O[C@@H]4O[C@H](C)[C@@H](O)[C@H](NC(=O)CN(C)C)[C@@H]4O)/C=C/C=C/C=C/C=C\C=C/C=C/C=C/C2C)O3)cc1 | 73 | 0.015 µg/mL
COc1ccc(/C=C2\CSc3ccccc3C2=O)cc1 |  | 6 µg/mL
CCCCCNC(=S)c1ccc[nH]c1=S |  | 30 µg/mL
O=C1/C(=C/c2ccc(Cl)cc2)CCc2ccccc21 |  | 12.5 µg/mL
O=C(c1ccccc1Br)n1c(-c2ccccc2[N+](=O)[O-])nc2ccccc21 |  | 15 µg/mL
CCCCCOc1ccc(-c2ccc(-c3ccc(C(=O)N[C@H]4CCCNC(=O)[C@@H]5C[C@H](N)CN5C(=O)[C@H](CCCN=C(N)N)NC(=O)[C@H](CCc5ccc(O)cc5)NC(=O)[C@@H]5C[C@@H](O)CN5C(=O)[C@H]([C@@H](C)O)NC4=O)cc3)cc2)cc1 | ATCC 10231 | 0.39 µg/mL
Cc1cc(=O)oc2cc(OCC(O)Cn3cncn3)cc(OCC(O)Cn3cncn3)c12 |  | 1 µg/mL
CNc1ccc(C(=O)CC(O)CCC(C)C2OC(=O)CC(O)CC(=O)CC(O)CC(O)CC(O)CC(O)CC3(O)CC(O)C(C(=O)NCCN(C)C)C(CC(O[C@@H]4O[C@H](C)[C@@H](O)[C@H](NC(=O)CN5CCN(CCO)CC5)[C@@H]4O)/C=C/C=C/C=C/C=C\C=C/C=C/C=C/C2C)O3)cc1 | 73 | 0.03 µg/mL
O=C1/C(=C/c2ccc3c(c2)OCO3)CSc2ccccc21 |  | 6 µg/mL
O=C(NCc1ccccc1)c1ccc[nH]c1=S |  | 10 µg/mL
CNc1ccc(C(=O)CC(O)CCC(C)C2OC(=O)CC(O)CC(=O)CC(O)CC(O)CC(O)CC(O)CC3(O)CC(O)C(C(=O)O)C(CC(O[C@@H]4O[C@H](C)[C@@H](O)[C@H](N)[C@@H]4O)/C=C/C=C/C=C/C=C\C=C/C=C/C=C/C2C)O3)cc1 | 73 | 0.06 µg/mL
COc1ccc(C2CC3(CC(c4ccc(OC)cc4)N2C)NNC(=S)N3)cc1 |  | 25 µg/mL
Cc1c(S(=O)(=O)c2ccccc2)[n+](=O)c2cc(Cl)ccc2n1[O-] | Clinical isolate 7 | 31.25 µg/mL
CC1C(c2ccccc2)N(C)C(c2ccccc2)CC12NNC(=S)N2 |  | 100 µg/mL
c1ccc(CCCN=c2ssc3ncccc23)cc1 |  | 30 µg/mL
Ic1ccc(-c2csc(N/N=C\c3cccc4ccccc34)n2)cc1 | Clinical isolates | 1 µg/mL
CCCCCC(O)CC(=O)CCc1ccc(O)c(OC)c1 | CN1A | 750 µg/mL
Cc1ccc(/C(=N\OC(=O)c2ccccc2)c2cc3ccccc3o2)cc1 |  | 4 µg/mL
O=C(c1ccc([N+](=O)[O-])cc1)n1c(-c2cccc(Cl)c2)nc2ccccc21 |  | 17 µg/mL
Cc1c(S(=O)(=O)c2ccccc2)[n+](=O)c2ccccc2n1[O-] | Clinical isolate 9 | 31.25 µg/mL
CO/N=C(\c1ccc(Cl)cc1)c1cc2ccccc2o1 |  | 2 µg/mL
O=C(O)c1ccccc1-c1nc2ccccc2n1C(=O)c1ccccc1Br |  | 30 µg/mL
CNc1ccc(C(=O)CC(O)CCC(C)C2OC(=O)CC(O)CC(=O)CC(O)CC(O)CC(O)CC(O)CC3(O)CC(O)C(C(=O)N4CCN(CCO)CC4)C(CC(O[C@@H]4O[C@H](C)[C@@H](O)[C@H](NC(=O)CN(C)C)[C@@H]4O)/C=C/C=C/C=C/C=C\C=C/C=C/C=C/C2C)O3)cc1 | 200 | 0.015 µg/mL

An empty or dashed field is not shown.